Results of unrelated studies side by side (data: NIAID ChemDB).

All rows: whole-cell or culture tests; organism: Herpes simplex virus 1

ECn is the concentration giving n% inhibition of infection, replication or growth.

smiles | cells | read-out | method | strain or isolate | result
CC1(CO)CCC(Cn2nnc3c(N)nc(N)nc32)C1(C)C | E6SM | EC50 | cytopathic effect | KOS | >400 µg/mL
Cc1cn([C@@H]2O[C@H](CO)[C@@H](O)[C@@H]2O)c(=O)[nH]c1=O | - | MIC | - | WT-20 | 100 µg/mL
CC1(C)OCC(CO)(CC(O)CO)O1 | CCL18 | EC50 | - | - | >100 µM
CCC(Sc1ncnc2c1cnn2CCCCO)C(N)=O | E6SM | EC50 | cytopathic effect | KOS | >400 µg/mL
Nc1nc2c(ncn2[C@H]2C=C[C@@H](CO)[C@H](O)C2)c(=O)[nH]1 | E6SM | EC50 | cytopathic effect | McIntyre | 0.004 µg/mL
COc1cc2c(cc1OC)[C@@H]1C(N)CSCON1CC2 | E6SM | EC50 | cytopathic effect | B2006 (TK-) | 0.07 µg/mL
CCc1cn([C@@H]2O[C@H](CO)[C@@H](O)[C@@H]2O)c(=O)[nH]c1=O | - | MIC | - | VR-3 | 3.2 µg/mL
Nc1nc2c(ncn2CCC(CO)CO)c(=O)[nH]1 | MRC-5 | EC50 | plaque count | 17 isolates | 0.4 µg/mL
C[C@H]1[C@H](O)[C@@H](CO)O[C@H]1n1cc(Br)c(N)nc1=O | RPMI8226 | EC50 | cytopathic effect | KOS | 6.2 µg/mL
O=c1[nH]c(=O)n([C@H]2C[C@H](O)[C@@H](CO)O2)cc1C(F)=C(F)C(F)(F)F | VERO | EC50 | plaque count | - | >100 µg/mL
Nc1ccn(C[C@@H](CO)OCP(=O)(O)O)c(=O)n1 | HFF | EC50 | plaque count | F | 0.6 µg/mL
CC1(C)[C@@H](CCO)C[C@H]1n1nnc2c(=O)[nH]c(N)nc21 | E6SM | EC50 | cytopathic effect | KOS | 300 µg/mL
Cc1cn([C@@]2(CO)C[C@H](O)[C@@H](CO)S2)c(=O)[nH]c1=O | HEL | EC50 | cytopathic effect | - | >100 µg/mL
O=c1[nH]c(=O)n([C@H]2C[C@H](O)[C@@H](CO)O2)cc1I | - | MIC | - | WOL | 1.1 µg/mL
Oc1ccc(C(c2ccc(O)cc2)c2ccc(C(F)(F)F)cc2)cc1 | VERO | EC50 | plaque count | KOS | 4.2 µg/mL
CC(C)CS[C@H]1C[C@@H](n2cnc3c(N)ncnc32)[C@H](O)[C@@H]1O | E6SM | EC50 | cytopathic effect | KOS | 400 µg/mL
COc1cc(C(c2ccc(O)cc2)c2ccc(O)cc2)ccc1O | VERO | EC50 | plaque count | KOS | 1.8 µg/mL
N#CC1=CSc2nnc(-c3cn(-c4ccccc4)nc3-c3ccccc3)n2N=C1N | HEL | EC50 | cytopathic effect | KOS | >80 µg/mL
CC1(C)[C@@H](CCO)C[C@H]1n1nnc2c(=O)[nH]cnc21 | E6SM | EC50 | cytopathic effect | TK-/B2006 | 40 µg/mL
O=c1[nH]c(=O)n([C@@H]2O[C@H](CO)[C@@H](O)[C@@H]2O)cc1/C=C/Br | PRK | EC50 | cytopathic effect | MacIntyre | 0.1 µg/mL
O=c1[nH]c(=O)n([C@H]2C[C@H](O)[C@@H](CO)O2)cc1C1=C(F)C(F)(F)C(F)(F)C1(F)F | VERO | EC50 | plaque count | - | >100 µg/mL
CON1CCc2c([nH]c3ccccc23)[C@@H]1[C@@H](N)CSC | PRK | EC50 | cytopathic effect | KOS | >100 µg/mL
NC(=O)CSc1ncnc2c1cnn2COCCO | E6SM | EC50 | cytopathic effect | B2006 (TK-) | >400 µg/mL
Nc1ncnc2c1ncn2[C@@H]1C[C@H](CO)[C@@H](O)[C@@H]1O | - | MIC | - | WT-34 | 10 µg/mL
O=C(O)CP(=O)(O)O | MEF | EC50 | plaque count | McIntyre | 30.8 µg/mL
CC1(CO)CCC(Cn2cnc3c(Cl)nc(N)nc32)C1(C)C | E6SM | EC50 | cytopathic effect | TK-/B2006 | >200 µg/mL
O=c1[nH]c(=O)n([C@H]2C[C@H](O)[C@@H](CO)O2)cc1I | - | MIC | - | WT-20 | 32 µg/mL
O=c1[nH]c(=O)n([C@H]2C[C@H](O)[C@@H](CO)O2)cc1/C(F)=C(\F)Cl | VERO | EC50 | plaque count | - | >100 µg/mL
Nc1nc2c(ncn2CCC(CO)CO)c(=O)[nH]1 | MRC-5 | EC50 | antigen | SC16 | 0.6 µg/mL
S=c1[nH]nc(-c2cn(-c3ccccc3)nc2-c2ccccc2)o1 | HEL | EC50 | cytopathic effect | KOS | >16 µg/mL
Cc1cccc(C)c1N(CC(=O)Nc1ccc(-c2ncon2)cc1)C(=O)C1CCS(=O)(=O)CC1 | HEF | EC90 | plaque count | 1 (KOS) | 0.23 µM
O=c1ccnc2c(Cl)c3[nH]ccnc3cc12 | VERO | EC50 | MTT | KOS | 90 µM
O=C(NCc1ccc(Cl)cc1)c1cn2c3c(cc(CN4CCOCC4)cc3c1=O)OC(c1cccnc1)C2 | HFF | EC50 | plaque count | PAA/R acyclovir-resistant | 0.9 µM
CC1(C)OCC2(CO[C@H](n3ccc(=O)[nH]c3=O)C2)O1 | CCL18 | EC50 | - | - | >100 µM
Nc1nc2c(ncn2[C@@H]2C=C[C@H](CO)[C@@H](O)C2)c(=O)[nH]1 | E6SM | EC50 | cytopathic effect | KOS TK- acyclovir-resistant | 0.38 µg/mL
Nc1ncnc2c1ncn2[C@@H]1O[C@H](CO)[C@@H](O)[C@@H]1O | HeLa | EC50 | cytopathic effect | KOS | 40 µg/mL
CC(=O)Nn1c(-c2cn(-c3ccccc3)nc2-c2ccccc2)n[nH]c1=S | HEL | EC50 | cytopathic effect | KOS (TK-) | >80 µg/mL
CCCCCCCC/C=C/CCCCCCCC(=O)O | HEL | EC50 | cytopathic effect | HU-3 | >100 µM
CC1(C)[C@@H](CCO)C[C@H]1n1nnc2c(Cl)nc(N)nc21 | E6SM | EC50 | cytopathic effect | TK-/VMW 1837 | >100 µg/mL
Cn1cc(C(=O)NCc2ccc(Cl)cc2)c(=O)c2cc(CN3CCOCC3)ccc21 | HFF | EC50 | plaque count | 13231 | 3.3 µM
CC1=Nn2c(nnc2-c2cn(-c3ccccc3)nc2-c2ccccc2)SC1 | HEL | EC50 | cytopathic effect | KOS | >16 µg/mL
Nc1ccn([C@@H]2C[C@](O)(CO)CO2)c(=O)n1 | CCL18 | EC50 | - | - | >100 µM
Nc1nc(=O)n([C@@H]2O[C@H](CO)[C@@H](O)[C@@H]2F)cc1I | HEP-2 | EC50 | cytopathic effect | KOS | 0.1 µg/mL
S=c1[nH]n2c(-c3cn(-c4ccccc4)nc3-c3ccccc3)nnc2s1 | HEL | EC50 | cytopathic effect | KOS (TK-) | >80 µg/mL
CC1(C)[C@@H](CCO)C[C@H]1n1cnc2c(=O)[nH]cnc21 | E6SM | EC50 | cytopathic effect | TK-/VMW 1837 | >400 µg/mL
O=C(O)P(=O)(O)O | HEL | EC50 | cytopathic effect | HU-5 | 584 µM
COc1ccccc1-c1nc2cc3ncccc3cc2[nH]1 | VERO | EC50 | MTT | KOS | 75 µM
C[C@H]1[C@H](O)[C@@H](CO)O[C@H]1n1cc(I)c(N)nc1=O | RPMI8226 | EC50 | cytopathic effect | F | 1.89 µg/mL
O=C1O[C@H](CO)C[C@]1(O)CO | CCL18 | EC50 | - | - | >100 µM
Oc1ccc(C(c2ccc(C(F)(F)F)cc2)c2ccc(O)c(Cl)c2)cc1Cl | VERO | EC50 | plaque count | KOS | 4.4 µg/mL
NC(=O)CSc1ncnc2c1cnn2COCC(O)CO | E6SM | EC50 | cytopathic effect | KOS | >400 µg/mL
Cc1nn2c(-c3cn(-c4ccccc4)nc3-c3ccccc3)nnc2s1 | HEL | EC50 | cytopathic effect | KOS | >16 µg/mL
NC1CSCCN2CCc3c([nH]c4ccccc34)[C@H]12 | E6SM | EC50 | cytopathic effect | KOS | 2 µg/mL
c1ccc(-c2ccc(-c3nc4cc5ncccc5cc4[nH]3)cc2)cc1 | VERO | EC50 | MTT | KOS | 80 µM
CC(Sc1ncnc2c1cnn2CCCCO)C(N)=O | E6SM | EC50 | cytopathic effect | VWM1837 (TK-) | >400 µg/mL
Nn1c(SCC(=O)O)nnc1-c1cn(-c2ccccc2)nc1-c1ccccc1 | HEL | EC50 | cytopathic effect | KOS (TK-) | >80 µg/mL
CC1(C)OCC(COC(=O)O)(CC(COC(=O)O)OC(=O)O)O1 | CCL18 | EC50 | - | - | >100 µM
O=C(O)P(=O)(O)O | RK-13 | EC50 | plaque count | 76 | 31 µM
C[C@H]1[C@H](O)[C@@H](CO)O[C@H]1n1cc(Br)c(=O)[nH]c1=O | RPMI8226 | EC50 | cytopathic effect | A4-3 | >60.4 µg/mL
O=c1[nH]c(=O)n([C@H]2C[C@H](O)[C@@H](CO)O2)cc1I | BALB/3T3 | EC50 | cytopathic effect | KOS | 0.1 µg/mL
Nc1nc2c(ncn2COC(CO)CO)c(=O)[nH]1 | HEL | EC50 | cytopathic effect | HU-10 | >400 µM
C[C@H]1[C@H](O)[C@@H](CO)O[C@H]1n1cc(I)c(=O)[nH]c1=O | RPMI8226 | EC50 | cytopathic effect | Hangai | 0.16 µg/mL
CC1(CO)CCC(Cn2nnc3c(=O)[nH]c(N)nc32)C1(C)C | E6SM | EC50 | cytopathic effect | TK-/B2006 | >400 µg/mL

For reference, 6 entries again:

smiles,cells,read-out,method,strain or isolate,result
CC(Sc1ncnc2c1cnn2CCCCO)C(N)=O,E6SM,EC50,cytopathic effect,VWM1837 (TK-),>400 µg/mL
O=C(NCc1ccc(Cl)cc1)c1cn2c3c(cc(CN4CCOCC4)cc3c1=O)OC(c1cccnc1)C2,HFF,EC50,plaque count,PAA/R acyclovir-resistant,0.9 µM
C[C@H]1[C@H](O)[C@@H](CO)O[C@H]1n1cc(Br)c(N)nc1=O,RPMI8226,EC50,cytopathic effect,KOS,6.2 µg/mL
S=c1[nH]nc(-c2cn(-c3ccccc3)nc2-c2ccccc2)o1,HEL,EC50,cytopathic effect,KOS,>16 µg/mL
CC1(C)[C@@H](CCO)C[C@H]1n1cnc2c(=O)[nH]cnc21,E6SM,EC50,cytopathic effect,TK-/VMW 1837,>400 µg/mL
O=C(O)P(=O)(O)O,HEL,EC50,cytopathic effect,HU-5,584 µM

Blank or dashed fields: not listed here. Lines come from different laboratories, so protocols vary.